Assay results: the supplement of paper PMC9931576
Human monoclonal antibodies against the spike receptor-binding domain (heavy:light variable regions). IC50 against pseudoviruses bearing the spike of naturally observed variants; lower = stronger; >10 µg/ml means not reached at the top dose. No active / inactive call. The stated detection limit is 0.0005 µg/ml; values near or below 0.001 µg/ml lie at the floor of the assay.

B1: BD56-883 (protein)
chain 1: QVQLVQSGAEVKKPGSSVKVSCKASGGTFSSYGISWVRQAPRQGLEWMGGIIPIFGTPNHAQKFQGRVTITADESTSTAYMELSSLRSEDTAVYYCARVEQLPPHWHFDLWGRGTLVTVSS
chain 2: QSVLTQPPSVSEAPRQRVTISCSGSSSNIGNNAVNWYQQLPGKAPKLLIYDDDLLSSGVSDRFSGSKSGTSASLAISGLQSEDEADYYCAAWDDSLNGVVFGGGTTLTVL
B2: BD56-272 (protein)
chain 1: EVQLVQSGAEVRKPGESLKISCKDSGYSFSNYWIGWVRQMPGKGLEWMGIIYPGDSDTRYSPSFRGQVTISADKSISTAYLQWSSLKASDTAMYFCATSGVVVAQFGFDYWGQGTLVTVSS
chain 2: NFMLTQPHSVSESPGKTVTISCTGSSGSIASNYVQWYQQRPGSAPTTVIYEDNQRPSGVPDRFSGSIDSSSNSASLTISGLKTEDEADYYCQSFDSSYVVFGGGTRLTVL
B3: BD56-860 (protein)
chain 1: QVQLQESGPGLVKPSETLSLTCTVSGDSISGYYWSWIRQPPGKGLEWIGYIYYSGNTNYNPSLKSRVTISVDTSDNRLSLKLSSVTAADTAVYYCARGDNYGDYWPPDSWGQGTLVSVSS
chain 2: DIVMTQSPDSLAVSLGERATINCKSSQSVLYSSNNQNYLAWYQQKPGQSPKLLISWASTRESGVPDRFSGSGSGTDFTLTISSLQAEDVAVYYCQQYYSPPLTFGGGTKVEIK
B4: BD56-889 (protein)
chain 1: QVQLQESGPGLVKPSETLSLTCTVSSDSISSYYWSWIRQPPGKGLEWIGYIYNSGSINYNPSLKSRVTISEDTSKNQFSLKLSSVTAADTAVYYCVRGGSYGDYFSYWGQGTLVTVSS
chain 2: DIVMTQSPDSLAVSLGERATINCKSSQSVLYSSNNENYLAWYQQKPGQPPQLLIYWASTRESGVPDRFSGSGSGTDFTLTISSLQAEDVAVYYCQQYYSPPLTFGGGTKVEIK
B5: BD56-844 (protein)
chain 1: QITLKESGPTLVKPTQTLTLTCSFSGFSLSTSGVGVGWIRQPPGKALEWLALIYWDDDKRYSPSLKSRLTITKDTSKNQVVLTMTNMDPVDTATYYCAHSPDGSSEYFQHWGQGTLVTVSS
chain 2: SYELTQPPSVSVSPGQTARITCSGDALPKQYAYWYQQKPGQAPVVVIYKDSERPSGIPERFSGSSSGTTVTLTISGVQAEDEADYYCQSADSSGTPVVFGGGTKLTVL
B6: BD56-847 (protein)
chain 1: EVQLVESGGGLVKPGGSLRLSCAASGFTFSRYYMNWVRQAPGKGLEWVSSITSSSSYIYYADSVKGRFTISRDNAENSLYLQMNSLRAEDTAVYYCASTPGDSSSWYSDYWGQGTLVTVSS
chain 2: SYELTQPPSVSVSPGQTARITCSGDALPNQYAYWYQQKPGQAPVMVIYKDSERPSGIPERFSGSSSGTTVTLTISGVQAEDEADYYCQSADNSGTPWVFGGGTKLTVL
B7: BD55-6390 (protein)
chain 1: QVQLVQSGAEVKKPGSSVKVSCKASGGTFSSSAISWVRQAPGQGLEWMGRIIPMFGIVSYEQKFQGRVTITADKSTSTAYMELSSLRSEDTGVYYCARDFVDMHSGYGQGYFDYWGQGTLVTVSS
chain 2: DIQMTQSPSTLSASVGDRVTITCRASQNISSWLAWYQQKPGKAPKLLIYKASSLESGVPSRFSGSGSGTEFTLTIISLQPDDFATYYCQHYKSYPFTFGPGTKVDIK
B8: BD56-888 (protein)
chain 1: QVTLRESGPALVKPTQTLTLTCTFSGFSLSTSGMCVSWIRQPPGKALEWLALIDWDDDKYYSTSLKTRLTISKDTSKNQVVLTMTNMDPVDTATYYCARVSEEGSSSSYYFDYWGQGTLVTVSS
chain 2: SYELTQPPSVSVSPGQTARITCSGDALPMQFAYWYQQKPGQAPVVVIYKDSERPSGIPERFSGSSSGTTVTLTISGVQAEDEADYYCQSADSSGSYPVVFGGGTKLTVL
B9: BD56-843 (protein)
chain 1: EVQLVQSGAEVKKPGESLKISCKGSGYSFTNYWIGWVRQMPGKGLEWMGIISPGDSDTRYSPSFQGQVTISADKSISTAHLQWSSLKASDTAMYYCARVGVGTLEPYFDYWGQGTLVTVSS
chain 2: DIQMTQSPSSLSASVGDRVTITCRASQTISSFLNWYQQKPGKAPKLLIYAASSLQSGVPSRFSGSGSGTDFTLTITSLQPEDFATYYCQQTYSIWTFGLGTKVEIK

biological target: SARS-CoV-2 Omicron BA.1 spike pseudovirus; test: pseudovirus neutralization IC50; higher = weaker neutralization
Protocol: (§1)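 Single-round VSV luciferase pseudovirus mixed with antibody dilutions for 1 h and put on Huh-7 cells for about a day; IC50 from the dose curve.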

In order of rising “pseudovirus neutralization IC50” value:
1. B3  0.00054 µg/mL
2. B1  0.000582 µg/mL
3. B6  0.00103 µg/mL
4. B4  0.00239 µg/mL
5. B9  0.00507 µg/mL
6. B5  0.00626 µg/mL
7. B2  0.0132 µg/mL
8. B8  0.0225 µg/mL

biological target: SARS-CoV-2 Omicron BA.2 spike pseudovirus; test: as above
Protocol: as §1

Compared with B1, B2 is 340-fold higher in “pseudovirus neutralization IC50” value: 0.000547 µg/mL for the first, 0.187 µg/mL for the second.

Going from B3 to B4, the “pseudovirus neutralization IC50” value falls from > 10 µg/mL to 0.255 µg/mL.

Going from B5 to B6, the “pseudovirus neutralization IC50” value falls from 0.0475 µg/mL to 0.000498 µg/mL (95-fold).

First: B8
Second: B9
The “pseudovirus neutralization IC50” value of the first is 52-fold higher: 2.92 µg/mL for the first, 0.0566 µg/mL for the second.

biological target: SARS-CoV-2 Omicron BA.2.75 spike pseudovirus; test: as above
Protocol: as §1

B1 and B2 are within 1.5-fold of each other in “pseudovirus neutralization IC50” value: 0.00273 µg/mL for the first, 0.003 µg/mL for the second.

First: B3
Second: B4
The “pseudovirus neutralization IC50” value of the first is higher: > 10 µg/mL for the first, 0.352 µg/mL for the second.

Going from B5 to B6, the “pseudovirus neutralization IC50” value falls from 0.0585 µg/mL to 0.00244 µg/mL (24-fold).

Compared with B8, B9 is 1.5-fold lower in “pseudovirus neutralization IC50” value: 0.0706 µg/mL for the first, 0.0457 µg/mL for the second.

biological target: SARS-CoV-2 Omicron BA.2.75.2 spike pseudovirus; test: as above
Protocol: as §1

Going from B1 to B2, the “pseudovirus neutralization IC50” value rises from 0.0318 µg/mL to 3.74 µg/mL (120-fold).

First: B3
Second: B4
The “pseudovirus neutralization IC50” value of the first is higher: > 10 µg/mL for the first, 0.65 µg/mL for the second.

Going from B5 to B6, the “pseudovirus neutralization IC50” value falls from 0.483 µg/mL to 0.00302 µg/mL (160-fold).

B8 and B9 are within 1.5-fold of each other in “pseudovirus neutralization IC50” value: 0.117 µg/mL for the first, 0.0904 µg/mL for the second.

biological target: SARS-CoV-2 Omicron BA.5 spike pseudovirus; test: as above
Protocol: as §1

Compared with B1, B2 is 7.2-fold lower in “pseudovirus neutralization IC50” value: 1.16 µg/mL for the first, 0.162 µg/mL for the second.

Going from B3 to B4, the “pseudovirus neutralization IC50” value falls from > 10 µg/mL to 0.369 µg/mL.

First: B5
Second: B6
The “pseudovirus neutralization IC50” value of the first is 47-fold higher: 0.0579 µg/mL for the first, 0.00122 µg/mL for the second.

First: B8
Second: B9
The “pseudovirus neutralization IC50” value of the first is 49-fold higher: 3.92 µg/mL for the first, 0.0793 µg/mL for the second.

biological target: SARS-CoV-2 Omicron BM.1.1.1 spike pseudovirus; test: as above
Protocol: as §1

B1 and B2 cannot be ordered by “pseudovirus neutralization IC50” value: > 10 µg/mL for the first, > 10 µg/mL for the second.

B3 and B4 cannot be ordered by “pseudovirus neutralization IC50” value: > 10 µg/mL for the first, > 10 µg/mL for the second.

Compared with B5, B6 is 75-fold lower in “pseudovirus neutralization IC50” value: 0.421 µg/mL for the first, 0.00565 µg/mL for the second.

B8 and B9 are within 1.5-fold of each other in “pseudovirus neutralization IC50” value: 0.136 µg/mL for the first, 0.127 µg/mL for the second.

biological target: SARS-CoV-2 Omicron BQ.1.1 spike pseudovirus; test: as above
Protocol: as §1

B1 and B2 cannot be ordered by “pseudovirus neutralization IC50” value: > 10 µg/mL for the first, > 10 µg/mL for the second.

B3 and B4 cannot be ordered by “pseudovirus neutralization IC50” value: > 10 µg/mL for the first, > 10 µg/mL for the second.

Going from B5 to B6, the “pseudovirus neutralization IC50” value falls from > 10 µg/mL to 0.00197 µg/mL.

B7 and B8 cannot be ordered by “pseudovirus neutralization IC50” value: > 10 µg/mL for the first, > 10 µg/mL for the second.

With B9 the “pseudovirus neutralization IC50” value was 1.99 µg/mL.

biological target: SARS-CoV-2 Omicron BR.2 spike pseudovirus; test: as above
Protocol: as §1

Going from B1 to B2, the “pseudovirus neutralization IC50” value rises from 0.25 µg/mL to > 10 µg/mL.

B3 and B4 cannot be ordered by “pseudovirus neutralization IC50” value: > 10 µg/mL for the first, > 10 µg/mL for the second.

Going from B5 to B6, the “pseudovirus neutralization IC50” value falls from 0.599 µg/mL to 0.00631 µg/mL (95-fold).

B8 and B9 are within 1.5-fold of each other in “pseudovirus neutralization IC50” value: 0.125 µg/mL for the first, 0.0868 µg/mL for the second.

biological target: SARS-CoV-2 Omicron CA.1 spike pseudovirus; test: as above
Protocol: as §1

B1 and B2 cannot be ordered by “pseudovirus neutralization IC50” value: > 10 µg/mL for the first, > 10 µg/mL for the second.

B3 and B4 cannot be ordered by “pseudovirus neutralization IC50” value: > 10 µg/mL for the first, > 10 µg/mL for the second.

First: B5
Second: B6
The “pseudovirus neutralization IC50” value of the first is 59-fold higher: 0.306 µg/mL for the first, 0.0052 µg/mL for the second.

B8 and B9 are within 1.5-fold of each other in “pseudovirus neutralization IC50” value: 0.131 µg/mL for the first, 0.092 µg/mL for the second.

biological target: SARS-CoV-2 Omicron XBB spike pseudovirus; test: as above
Protocol: as §1

B1 and B2 cannot be ordered by “pseudovirus neutralization IC50” value: > 10 µg/mL for the first, > 10 µg/mL for the second.

B3 and B4 cannot be ordered by “pseudovirus neutralization IC50” value: > 10 µg/mL for the first, > 10 µg/mL for the second.

B5 and B6 cannot be ordered by “pseudovirus neutralization IC50” value: > 10 µg/mL for the first, > 10 µg/mL for the second.

B7 and B8 cannot be ordered by “pseudovirus neutralization IC50” value: > 10 µg/mL for the first, > 10 µg/mL for the second.

B9 was tested, and the “pseudovirus neutralization IC50” value was > 10 µg/mL.

biological target: SARS-CoV-2 early D614G spike pseudovirus; test: as above
Protocol: as §1

B1 and B2 cannot be ordered by “pseudovirus neutralization IC50” value: > 10 µg/mL for the first, > 10 µg/mL for the second.

B3 and B4 cannot be ordered by “pseudovirus neutralization IC50” value: > 10 µg/mL for the first, > 10 µg/mL for the second.

B5 and B6 cannot be ordered by “pseudovirus neutralization IC50” value: > 10 µg/mL for the first, > 10 µg/mL for the second.

B8 and B9 cannot be ordered by “pseudovirus neutralization IC50” value: > 10 µg/mL for the first, > 10 µg/mL for the second.
